PubChem BioAssay AID624099, ICCB-Longwood | 2012

Test: 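Knock-downs relieving repression by E2 of an HPV18 LCR luciferase reporter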 (primary screen)
System: human C33A cervical carcinoma cells (HPV-negative) stably expressing BPV1 E2 and an HPV18 LCR luciferase reporter
Reagents: siRNA pool against human genes, 40 nM
Duration: 72 h
Detection: 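Per-well luciferase luminescence, z-scored on each plate against the plate mean and SD with control wells left out, then averaged across three replicate plates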
Direction: mean z-score and z-score: higher = stronger reporter signal, weaker E2 silencing
Active means: 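Mean z ≥ 2 together with z ≥ 2 in two or more of the three replicates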
The whole screen tested about 21,000 reagents; this is a part drawn at random. 497 of all reagents (2.4%) count as active. 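Higher z means weaker E2 silencing; only reporter increases were scored, and knock-downs that hurt cell survival may mask genuine repressor factors.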 A number with no mark means an inactive call.

Target gene | PubChem SID | mean z-score | z-score, replicate A | z-score, replicate B | z-score, replicate C
RPL23AP87 (ribosomal protein L23a pseudogene 87) | SID134328829 | -0.5 | -0.62 | -0.57 | -0.32
ACER3 (alkaline ceramidase 3) | SID134314177 | 0.54 | -0.04 | 1.05 | 0.59
FAM222A (family with sequence similarity 222 member A) | SID134319076 | 1.35 | 1.48 | 1.36 | 1.21
OR1A1 (olfactory receptor family 1 subfamily A member 1) | SID134313753 | 1.65 | 1.62 | 2.06 | 1.28
PEX5L (peroxisomal biogenesis factor 5 like) | SID134324737 | 0.7 | 0.99 | 0.37 | 0.73
CHI3L2 (chitinase 3 like 2) | SID134316894 | -0.11 | -0.31 | -0.02 | 0
PCSK5 (proprotein convertase subtilisin/kexin type 5) | SID134311412 | -0.9 | -0.82 | -1.22 | -0.67
GGN (gametogenetin) | SID134322985 | -1.95 | -1.99 | -1.32 | -2.54
TMEM63C (transmembrane protein 63C) | SID134325239 | -1.63 | -1.59 | -1.35 | -1.96
SNTA1 (syntrophin alpha 1) | SID134316095 | -0.23 | -0.14 | -0.38 | -0.17
GRPEL1P3 (GRPEL1 pseudogene 3) | SID134329300 | -1.1 | -1.27 | -0.72 | -1.32
YBX3 (Y-box binding protein 3) | SID134319817 | -0.78 | -0.68 | -0.75 | -0.91
MAST3 (microtubule associated serine/threonine kinase 3) | SID56478760 | 3.13 (active) | 2.16 | 4.07 | 3.17
MSH2 (mutS homolog 2) | SID134310155 | 0.25 | 0.25 | -0.13 | 0.61
LOC197387 (retired record) | SID134325462 | 0.02 | 0.05 | -0.02 | 0.03
CDC34 (cell division cycle 34, ubiquitin conjugating enzyme) | SID56478590 | 0.25 | 0.22 | 0.31 | 0.22
SH3BGRL (SH3 domain binding glutamate rich protein like) | SID134323363 | 0.63 | 0.27 | 1.3 | 0.33
PRH1 (proline rich protein HaeIII subfamily 1) | SID134316997 | 0.18 | 0.39 | 0.26 | -0.12
LOC399866 (retired record) | SID134328304 | -0.18 | -0.04 | -0.42 | -0.08
MAGEL2 (MAGE family member L2) | SID134317601 | 0.22 | 0.09 | 0.03 | 0.54
H3C10 (H3 clustered histone 10) | SID134317933 | -1.12 | -0.95 | -1.1 | -1.31
XPC | SID134320052 | -0.26 | -0.19 | -0.33 | -0.26
STX2 (syntaxin 2) | SID134324967 | -0.51 | -0.68 | -0.53 | -0.31

Part of the list above, reformatted:
LOC399866 (retired record) [SID134328304] → mean z-score: -0.18; z-score, replicate A: -0.04; z-score, replicate B: -0.42; z-score, replicate C: -0.08
MAGEL2 (MAGE family member L2) [SID134317601] → mean z-score: 0.22; z-score, replicate A: 0.09; z-score, replicate B: 0.03; z-score, replicate C: 0.54
H3C10 (H3 clustered histone 10) [SID134317933] → mean z-score: -1.12; z-score, replicate A: -0.95; z-score, replicate B: -1.1; z-score, replicate C: -1.31
